Pooled drug test results. Numbers come from NIAID ChemDB, via PubChem.

Shared fields: whole-cell or culture tests; species: Candida albicans; measure: MIC

An empty or dashed field is not shown. Conditions beyond the fields shown may differ between rows.

smiles | strain or isolate | result
CC(/C=C/C=C(\C)C(O)C(C)C(=O)O[C@H]1C[C@@H](C)C=C2C=C[C@]3(C)O[C@@H](O)CC(=O)[C@]3(C)[C@H]21)=C\C=C\C(=O)O | ATCC 62376 | 0.78 µg/mL
O=[N+]([O-])c1ccc(CC(c2cccs2)n2ccnc2)cc1 |  | 150 µM
Clc1ccc(COC(Cn2ccnc2)c2ccc(Cl)cc2Cl)c(Cl)c1 | ATCC11651 | 25 µg/mL
Cc1c(O)cccc1C(=O)N[C@@H](CSc1ccccc1)[C@H](O)CN1C[C@H]2CCCC[C@H]2C[C@H]1C(=O)NC(C)(C)C | I153A | 64 µg/mL
Cc1ccc(C(Cc2ccc(Cl)cc2Cl)n2ccnc2)s1 |  | 19 µM
CC(C)(C)c1ccc(COC(Cn2ccnc2)c2ccc(Cl)cc2Cl)cc1 | CA2 | 128 µg/mL
Clc1ccc(COC(Cn2ccnc2)c2ccc(Cl)cc2Cl)c(Cl)c1 | ATCC 10231 | 0.5 µg/mL
CCO/N=C(\c1ccc(C)cc1)c1cc2ccccc2o1 |  | 4 µg/mL
CC(C)C1=CC2CC3(C=O)[C@@H]4CC[C@@H](C)[C@H]4CC2(C(O)CCC2CCCCC2)C13C(=O)O |  | 0.5 µg/mL
N#CC(CC(=O)O)C(N)C(=O)O | ATCC 32354 (B311) | 0.8 µg/mL
Clc1nnc2c(cnc3ccccc32)n1 | VM-81 | ≤10 µg/mL
Cc1nn(-c2ccccc2)c2c1C(c1cccc([N+](=O)[O-])c1)C(C#N)=C(N)O2 | MTCC 227 | 500 µg/mL
CNn1c(C)n[nH]c1=O | ATCC16231 | >250 µg/mL
CCOc1cc2c(cc1F)n([O-])c(C)c(S(=O)(=O)c1ccccc1)[n+]2=O | Clinical isolate 20 | 7.8 µg/mL
O=C1CCC(=O)N1n1c(Cc2ccc(Cl)cc2)n[nH]c1=O | ATCC16231 | >250 µg/mL
Cc1c(Sc2ccccc2)[n+](=O)c2cc(C(F)(F)F)ccc2n1[O-] | Clinical isolate 3 | 62.5 µg/mL
Nc1ncnc2c1ncn2[C@@H]1O[C@H](C(=O)NCCS(=O)(=O)O)[C@@H](NC(=O)[C@H](N)CSCc2ccccc2)[C@H]1O | FP633 | >100 µg/mL
Cc1nn(-c2ccccc2)c2c1C(c1ccc(Cl)cc1)c1c(nc(=O)[nH]c1N)O2 | MTCC 227 | 250 µg/mL
C[C@H]1[C@H](O)[C@@H](C)/C=C/C=C/C=C/C=C/C=C/C=C/C=C/[C@H](O[C@@H]2O[C@H](C)[C@@H](O)[C@H](N)[C@@H]2O)C[C@@H]2O[C@](O)(C[C@@H](O)C[C@@H](O)CC[C@H](O)[C@@H](O)C[C@@H](O)CC(=O)O[C@H]1C)C[C@H](O)[C@H]2C(=O)O | ATCC 10231 | 1.56 µg/mL
Cc1ccc(/C(=N\O)c2cc3ccccc3o2)cc1 |  | 2 µg/mL
Clc1ccc(CC(c2cccs2)n2ccnc2)cc1 |  | 75 µM
C[C@@H](N1CCN(c2ccc(-n3cnnn3)cc2)C1=O)[C@@](O)(Cn1cncn1)c1ccc(F)cc1F | CA383 | >16 µg/mL
C=CCN(CC=C)c1nnc2c(cnc3ccccc32)n1 | VM-81 | 50 µg/mL
CC(C)C1=CC2CC3(C=O)[C@@H]4CC[C@@H](C)[C@H]4CC2(C(O)CCc2ccccc2)[C@]13C(=O)O |  | 16 µg/mL
Cc1nn(-c2ccccc2)c2c1C(c1ccc(F)cc1)c1c(nc(=O)[nH]c1N)O2 | MTCC 227 | 150 µg/mL
CSCCC(N)C(=O)N[C@H]1[C@@H](O)[C@H](n2cnc3c(N)ncnc32)O[C@@H]1C(=O)O | FP633 | 1.6 µg/mL
CC(C)C1=C[C@H]2C[C@]3(C=O)[C@@H]4CC[C@@H](C)[C@H]4C[C@@]2(CO[C@H]2C[C@@H]4OC(C)(C)O[C@@H]4[C@@H](C)O2)[C@]13C(=O)O | Isolate 4711E fluconazole-susceptible | <0.01 µg/mL
CCCCCC(=O)O[C@H]1[C@H](OC(=O)CCCCC)[C@H](OCC23C4C=C(C(C)C)C2(C(=O)O)C(C=O)(C4)[C@@H]2CC[C@@H](C)[C@H]23)O[C@H](C)[C@H]1OC | 1208 | 8 µg/mL
C[C@H]1[C@H](O)[C@@H](C)/C=C/C=C/C=C/C=C/C=C/C=C/C=C/[C@H](O[C@@H]2O[C@H](C)[C@@H](O)[C@H](N)[C@@H]2O)C[C@@H]2O[C@](O)(C[C@@H](O)C[C@@H](O)CC[C@H](O)[C@@H](O)C[C@@H](O)CC(=O)O[C@H]1C)C[C@H](O)[C@H]2C(=O)O | R89-214 | 1 µg/mL
Cc1c(S(=O)(=O)c2ccccc2)[n+](=O)c2ccccc2n1[O-] | Clinical isolate 15 | 31.25 µg/mL
COc1ccc(CSCC(N)C(=O)N[C@H]2[C@@H](O)[C@H](n3cnc4c(N)ncnc43)O[C@@H]2C(=O)O)cc1 | FP633 | 0.4 µg/mL
Cc1ccc(C(Cc2ccc([N+](=O)[O-])cc2)n2ccnc2)s1 |  | 150 µM
O=C1CCC(=O)N1n1c(Cc2ccccc2)n[nH]c1=O | ATCC16231 | >250 µg/mL
CC(=O)NCSC[C@@H](N)C(=O)N[C@H]1[C@@H](O)[C@H](n2cnc3c(N)ncnc32)O[C@@H]1C(=O)O | FP633 | >100 µg/mL
CC(=O)OCCn1c(Cc2ccc([N+](=O)[O-])cc2)nn(C(C)=O)c1=O | ATCC16231 | >250 µg/mL
O=[n+]1c(Sc2ccccc2)c(CBr)n([O-])c2ccccc21 | Clinical isolate 19 | 7.8 µg/mL
Clc1ccc(C(Cn2ccnc2)OCc2ccc(-c3ccccc3)cc2)c(Cl)c1 | CA2 | 128 µg/mL
CC(C)C1=CC2CC3(C=O)[C@@H]4CC[C@@H](C)[C@H]4CC2(C(O)CC2CCCCC2)[C@]13C(=O)O |  | 0.5 µg/mL
Cc1nn(-c2ccccc2)c2c1C(c1ccccc1)c1c(nc(=S)[nH]c1N)O2 | MTCC 227 | 200 µg/mL
Clc1ccc(C(Cn2ccnc2)OCc2cccc3ccccc23)c(Cl)c1 | 5M | 8 µg/mL
c1ccc(CO/N=C(\c2ccccc2)c2cc3ccccc3o2)cc1 |  | 16 µg/mL
C[C@@H](c1ncncc1F)[C@](O)(Cn1cncn1)c1ccc(F)cc1F | Isolate 98-17 | 0.12 µg/mL
c1ccc(C(Cn2ccnc2)OCc2cccc3ccccc23)cc1 | CA12 | 128 µg/mL
CN(CCCC#CC(C)(C)C)c1cccc2c1CCC(=O)N2 | Clinical isolate 20 | 15.6 µg/mL
CC(N1CCN(c2ccc(-n3cnnn3)cc2)C1=O)[C@](O)(Cn1cncn1)c1ccc(F)cc1F | CA383 | 4 µg/mL
Nc1nccc(CC(N)C(=O)N[C@H]2[C@@H](O)[C@H](n3cnc4c(N)ncnc43)O[C@@H]2C(=O)O)n1 | FP633 | 12.5 µg/mL
Cc1nn(-c2ccccc2)c2c1C(c1cccc(Cl)c1)C(C#N)=C(N)O2 | MTCC 227 | 1000 µg/mL
COc1ccc(/C(=N\OCc2ccccc2)c2cc3ccccc3o2)cc1 |  | 16 µg/mL
Cc1ccc(C(Cn2ccnc2)OCc2ccc(-c3ccccc3)cc2)cc1 | CA7 | 128 µg/mL
CC(C)CCCCCCCCC1CC(=O)NCC(=O)N[C@@H](CCCN)C(=O)N[C@@H](C(C)C)C(=O)N1 | IFM 40009 | 2.5 µg/mL
Cn1ccc(C(Cc2ccc([N+](=O)[O-])cc2)n2ccnc2)c1 |  | >300 µM
Cc1nn(-c2ccccc2)c2c1C(c1ccc(O)cc1)c1c(nc(=S)[nH]c1N)O2 | MTCC 227 | 250 µg/mL
CCC(C)CCCCCCC1CC(=O)NCC(=O)N[C@@H](CCCN)C(=O)N[C@@H](C(C)CC)C(=O)N1 | IFM 40009 | 2.5 µg/mL

Again, the opening 4 rows:

smiles | strain or isolate | result
CC(/C=C/C=C(\C)C(O)C(C)C(=O)O[C@H]1C[C@@H](C)C=C2C=C[C@]3(C)O[C@@H](O)CC(=O)[C@]3(C)[C@H]21)=C\C=C\C(=O)O | ATCC 62376 | 0.78 µg/mL
O=[N+]([O-])c1ccc(CC(c2cccs2)n2ccnc2)cc1 |  | 150 µM
Clc1ccc(COC(Cn2ccnc2)c2ccc(Cl)cc2Cl)c(Cl)c1 | ATCC11651 | 25 µg/mL
Cc1c(O)cccc1C(=O)N[C@@H](CSc1ccccc1)[C@H](O)CN1C[C@H]2CCCC[C@H]2C[C@H]1C(=O)NC(C)(C)C | I153A | 64 µg/mL